Results on 2 compounds are retold here after US4022962A, “Carbamylguanidine antimicrobial compounds” (Cooper Laboratories, Inc., priority 1975, dated 1977).

Each structure is given as a SMILES string.

A short description of the data set: taste panel.

As to `N=C(NCCCCCCNC(=N)NC(=O)Nc1ccc(Cl)cc1)NC(=O)Nc1ccc(Cl)cc1` [1,6-bis(4-chlorophenylcarbamylguanidino)hexane digluconate], the taste result (aqueous solutions at the concentration useful for microbial inhibition) is given as “essentially tasteless”.

On to `[H]/N=C(\N/C(=N/[H])NCCCCCCNC(=N)NC(=N)Nc1ccc(Cl)cc1)Nc1ccc(Cl)cc1` [chlorhexidine, 1,6-bis-(p-chlorophenylbiguanidino)hexane], for which the bitter taste result (compared with chlorhexidine) was “bitter taste”.
